Compound potency records, mixed from different reports. Data source: NIAID ChemDB in PubChem.

Shared fields: target-level tests; agent: HIV-1; protein: RNase H; measure: IC50

Rows are shuffled and stem from different studies.

structure,mutations,method,value
CC(=O)COc1ccc2c(c1O)C(=O)c1ccccc1C2=O,-,RNase H,>100 µM
Cc1cc(O)c2c(c1)C(=O)c1cc(OCC(=O)c3ccccc3)cc(O)c1C2=O,-,RNase H,>100 µM
O=C(N/N=C/c1ccccc1O)c1cc(O)c(O)c(O)c1,-,RNase H / fluorescence,5.8 µM
O=c1[nH]c(-c2ccc(O)c(O)c2)nc2sc3c(c12)CCCCC3,p66wt/p52C280A HIV-1 RT,RNase H / fluorescence,0.24 µM
CCC(=O)COc1ccc(OC(C)=O)c2c1C(=O)c1ccccc1C2=O,-,-,>100 µM
CC(=O)COc1ccc2c(c1OC(C)=O)C(=O)c1ccccc1C2=O,-,RNase H,>100 µM
Cc1nc2c(c(=O)o1)CCCCC2,-,RNase H / fluorescence,4.36 µM
O=C(Nc1sc2c(c1C(=O)Nc1ccccn1)CCCCC2)c1ccccc1Cl,-,RNase H / fluorescence,23.9 µM
O=C1c2ccccc2C(=O)c2c1ccc(O)c2O,-,RNase H,>100 µM
O=C(/C=C/c1cccn1Cc1ccccc1Cl)CC(=O)C(=O)O,Q475A,substrate cleavage / fluorescence,6.3 µM
Cc1cc(O)c(O)c(O)c(=O)c1,-,RNase H / fluorescence,1.3 µM
CCOC(=O)C(=O)CC(=O)/C=C/c1cc(-c2ccccc2)cn1Cc1ccc(F)cc1,Q475A,substrate cleavage / fluorescence,>100 µM
COC(=O)c1cc(=O)c(O)c(OC)cc1C,-,RNase H / fluorescence,14.7 µM
C/C(COc1ccc2c(c1O)C(=O)c1ccccc1C2=O)=N\O,-,RNase H,>100 µM
C#CCOc1ccc(OC(C)=O)c2c1C(=O)c1ccccc1C2=O,-,-,>100 µM
COc1cccc(-c2nc3sc4c(c3c(=O)o2)CCCCC4)c1,-,RNase H / fluorescence,21.9 µM
O=C(Nc1sc2c(c1C(=O)O)CCCCC2)c1ccc(Cl)cc1,-,RNase H / fluorescence,>100 µM
Cc1ccc(Cl)cc1Nc1nc(C(F)(F)F)ccc1C(=O)NN1CCN(c2cccc(Cl)c2)CC1,K103N,RNase H / absorbance,41 µM
O=C(Nc1sc2c(c1C(=O)Nc1ccccn1)CCCCC2)c1ccc(F)cc1Cl,-,RNase H / fluorescence,7.5 µM
O=c1oc(-c2ccc(Cl)cc2)nc2sc3c(c12)CCCCC3,-,RNase H / fluorescence,97 µM
COc1cccc(Cn2cccc2/C=C/C(=O)CC(=O)C(=O)O)c1,-,substrate cleavage / fluorescence,87 µM
O=c1oc(-c2ccccc2)nc2sc3c(c12)CCCCC3,-,RNase H / fluorescence,20.7 µM
O=C(CCc1ccc(F)cc1)Nc1sc2c(c1C(=O)Nc1ccccn1)CCCCC2,-,RNase H / fluorescence,14.5 µM
Nc1sc2c(c1C(=O)Nc1ccccn1)CCCCC2,-,RNase H / fluorescence,20.1 µM
O=C(Nc1sc2c(c1C(=O)Nc1ccccn1)CCCCC2)c1ccccc1F,-,RNase H / fluorescence,21.89 µM
COC(=O)c1c(C)cc(=O)c(O)c(O)c1O,-,RNase H / fluorescence,1.5 µM
O=C(Oc1ccc(O)c2c1C(=O)c1ccccc1C2=O)c1ccccc1,-,-,>100 µM
Cc1cc(O)c2c(c1)C(=O)c1cc(OCC(=O)c3ccc(Br)cc3)cc(O)c1C2=O,-,RNase H,29 µM
O=C(CC1CCCCC1)Nc1sc2c(c1C(=O)Nc1ccccn1)CCCCC2,-,RNase H / fluorescence,67.1 µM
Cc1nc2ccccc2c(=O)o1,-,RNase H / fluorescence,3.61 µM

The first 4 rows once more:

CC(=O)COc1ccc2c(c1O)C(=O)c1ccccc1C2=O ; method: RNase H ; value: >100 µM
Cc1cc(O)c2c(c1)C(=O)c1cc(OCC(=O)c3ccccc3)cc(O)c1C2=O ; method: RNase H ; value: >100 µM
O=C(N/N=C/c1ccccc1O)c1cc(O)c(O)c(O)c1 ; method: RNase H / fluorescence ; value: 5.8 µM
O=c1[nH]c(-c2ccc(O)c(O)c2)nc2sc3c(c12)CCCCC3 ; mutations: p66wt/p52C280A HIV-1 RT ; method: RNase H / fluorescence ; value: 0.24 µM

Blank or dashed fields: not listed here. ICn: concentration for n% inhibition.